Measured values as given in US20070160981A1 (priority 2005, published 2007).

Molecular target: SARS-CoV PLP2 (Severe acute respiratory syndrome coronavirus, UniProt P0C6U8)
Format: biochemical

Thimerosal
found in the screen for inhibitor of SARS-CoV PLP2: found
